Drawing on US20040097594A1 (priority 1998, published 2004), this text covers IC50 for 4 molecules.

pIC50: −log10 of the molar value. Read-outs that look alike come from different tables or passages of the source.

The subject of this assay is HIV-1 (strain IIIB). As to the kind of experiment: Antiviral Activity Assay in MT4 Cells (propidium iodide based procedure). It counts as cell-based. Conditions: read-out: IC50 (MT-4 cells), MT4 cells infected with HIV-1 strain IIIB, 5 days, lower line of each compound's entry.

On to `N#CCNc1cccc(S(=O)(=O)N(C[C@@H](O)[C@H](Cc2ccccc2)NC(=O)O[C@H]2CO[C@H]3OCC[C@H]32)OC2CCCC2)c1`, for which the pIC50 was above 7.00.

Turning to `Nc1cccc(S(=O)(=O)N(C[C@@H](O)[C@H](Cc2ccccc2)NC(=O)OC2COC3OCCCC23)OC2CCCC2)c1` (stereo partly shown), the pIC50 is 6.30 to 7.00.

Turning to `COc1ccc(S(=O)(=O)N(C[C@@H](O)[C@H](Cc2ccccc2)NC(=O)OC2COC3OCCCC23)OC2CCCC2)cc1` (stereo partly shown), the pIC50 (tested form: mixture of the two diastereomers (3S,3aR)) was 6.30 to 7.00.

Take `Nc1cccc(S(=O)(=O)N(C[C@@H](O)[C@H](Cc2ccccc2)NC(=O)OC2COC3OCCC23)OC2CCCC2)c1` (stereo partly shown): the pIC50 was above 7.00.

In general, pIC50 refers to −log10 of the IC50, conventionally taken in molar units.
